Measured values reported in patent publication US7611856B2 (priority 2003, dated 2009).

The chains behind the UniProt entries cited, without tags or fusion partners. Where a name states a change or a piece, a line headed by the entry shows the natural chain unless it says otherwise.
UniProt P0DPI0: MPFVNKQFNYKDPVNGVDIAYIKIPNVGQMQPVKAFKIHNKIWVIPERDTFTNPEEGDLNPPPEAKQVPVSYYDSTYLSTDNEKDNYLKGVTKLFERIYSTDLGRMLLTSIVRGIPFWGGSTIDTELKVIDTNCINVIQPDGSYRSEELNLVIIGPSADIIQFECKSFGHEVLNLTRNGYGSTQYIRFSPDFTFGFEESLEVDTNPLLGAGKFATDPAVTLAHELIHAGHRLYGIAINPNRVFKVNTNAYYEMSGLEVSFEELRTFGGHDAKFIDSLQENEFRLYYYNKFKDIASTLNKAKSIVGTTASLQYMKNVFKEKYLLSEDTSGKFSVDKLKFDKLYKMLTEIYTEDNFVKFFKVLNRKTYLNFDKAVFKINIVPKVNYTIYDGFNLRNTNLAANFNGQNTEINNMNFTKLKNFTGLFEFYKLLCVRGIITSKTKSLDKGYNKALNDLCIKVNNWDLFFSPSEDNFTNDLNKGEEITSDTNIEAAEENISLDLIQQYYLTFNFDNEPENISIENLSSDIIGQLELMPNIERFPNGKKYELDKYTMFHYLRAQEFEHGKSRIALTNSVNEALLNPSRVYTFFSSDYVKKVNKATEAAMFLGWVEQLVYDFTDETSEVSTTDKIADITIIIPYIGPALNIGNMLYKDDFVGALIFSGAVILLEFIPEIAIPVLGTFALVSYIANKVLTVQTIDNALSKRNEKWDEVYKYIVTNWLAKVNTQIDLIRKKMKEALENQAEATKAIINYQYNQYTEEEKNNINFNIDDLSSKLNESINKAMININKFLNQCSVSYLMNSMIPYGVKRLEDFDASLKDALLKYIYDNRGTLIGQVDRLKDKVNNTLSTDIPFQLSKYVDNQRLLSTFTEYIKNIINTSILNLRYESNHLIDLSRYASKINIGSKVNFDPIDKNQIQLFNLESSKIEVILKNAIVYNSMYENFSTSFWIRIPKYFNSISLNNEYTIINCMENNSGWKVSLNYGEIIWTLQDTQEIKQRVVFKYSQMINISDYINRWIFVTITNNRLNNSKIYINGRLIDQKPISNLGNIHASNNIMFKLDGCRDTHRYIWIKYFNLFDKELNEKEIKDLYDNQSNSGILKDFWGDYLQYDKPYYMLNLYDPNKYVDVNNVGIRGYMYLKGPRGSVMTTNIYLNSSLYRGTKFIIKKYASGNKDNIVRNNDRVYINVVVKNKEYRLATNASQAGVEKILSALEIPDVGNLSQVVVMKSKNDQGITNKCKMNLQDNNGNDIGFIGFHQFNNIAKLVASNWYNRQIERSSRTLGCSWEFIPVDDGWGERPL

Biological target: BoNT serotype A (Clostridium botulinum, UniProt P0DPI0)
Experiment: cleavage of peptide substrate by BoNT serotype A, MALDI-TOF-MS

Biotin-KGSNRTRIDEANQRATRMLGGK-biotin
cleavage of the peptide by BoNT serotype A (digested for two hours, MALDI-TOF-MS): Two distinct peptide products were shown that were the result of the specific cleavage of the peptide
amount of BoNT-dependent cleavage products versus unmodified SNAP-25 based peptide (lysines 189 and 201 replaced with arginines): increase in the amount of BoNT-dependent cleavage products detected
